Measured values published in ChEMBL document CHEMBL4665731, “Antifungal trichothecene sesquiterpenes obtained from the culture broth of marine-derived Trichoderma cf. brevicompactum and their structure-activity relationship” (2020).
Values after ≈ are worked out from the molar mass of the structure shown.

What was measured:
Cryptococcus neoformans [1] = experiment: Antifungal activity against Cryptococcus neoformans ATCC 14116 assessed as reduction in fungal growth incubated for 72 hrs by CLSI broth microdilution method; type: functional
Candida albicans = experiment: Antifungal activity against Candida albicans ATCC 90029 assessed as reduction in fungal growth incubated for 24 hrs by CLSI broth microdilution method
Rhizopus arrhizus = experiment: Antifungal activity against Rhizopus oryzae NBRC 4705 assessed as reduction in fungal growth incubated for 24 hrs by CLSI broth microdilution method
Aspergillus fumigatus = experiment: Antifungal activity against Aspergillus fumigatus NBRC 33022 assessed as reduction in fungal growth incubated for 24 hrs by CLSI broth microdilution method
Cryptococcus neoformans [2] = experiment: Antifungal activity against Cryptococcus neoformans ATCC 90113 assessed as reduction in fungal growth incubated for 72 hrs by CLSI broth microdilution method; conditions: time 24.0 hrs

SMILES	MIC90 (Cryptococcus neoformans [1]) [µg/mL]	MIC (Candida albicans) [µg/mL]	MIC (Rhizopus arrhizus) [µg/mL]	MIC (Aspergillus fumigatus) [µg/mL]	MIC (Cryptococcus neoformans [2]) [µg/mL]
C/C=C/C=C\C(=O)O[C@@H]1[C@@H](O)[C@H]2O[C@@H]3C=C(C)CC[C@]3(C)[C@]1(C)[C@]21CO1	1.6 (≈ 4.44 µM)	–	–	–	–
CC1=C[C@H]2O[C@@H]3[C@H](O)[C@@H](O)[C@](C)([C@@]2(C)CC1)[C@]31CO1	25 (≈ 93.9 µM)	–	–	–	–
CC(=O)O[C@@H]1C[C@H]2O[C@@H]3C=C(C)CC[C@]3(C)[C@]1(C)[C@]21CO1	–	0.125 (≈ 0.428 µM)	> 32	> 32	2 (≈ 6.84 µM)
C/C=C/C=C/C(=O)O[C@@H]1[C@@H](O)[C@H]2O[C@@H]3C=C(C)CC[C@]3(C)[C@]1(C)[C@]21CO1	6.3 (≈ 17.5 µM)	–	–	–	–
